This is an account of results in the supplement of paper PMC9931576.

Human monoclonal antibodies against the spike receptor-binding domain (heavy:light variable regions). IC50 against pseudoviruses bearing the spike of naturally observed variants; lower = stronger; >10 µg/ml means not reached at the top dose. No active / inactive call. The stated detection limit is 0.0005 µg/ml; values near or below 0.001 µg/ml lie at the floor of the assay.

The labels stand for the following.
B1: BD57-0374 (protein)
chain 1: EVQLVESGGGLVQPGRSLRLSCTASGFNFEDYTMHWVRQAPGKGLEWVSGISWNGGTIGYAESVKGRCIISRDNAKNSLYLHLRSLRAEDTAFYYCAKDTMVREGYNNYYGMDVWGQGTTVTVSS
chain 2: QSVLTQPPSVSGAPGQRVTISCTGSSSNIGAGYDVHWYQQLPGPAPKLLIYGTNNRPSGVPDRFSGSKSGTSASLAITGLQAEDEADYYCQSFDSSLGGYVFGTGTKVTVL
B2: BD57-0378 (protein)
chain 1: QVQLVQSGAEVKKPGSSVKVSCKASGGTFTRYAISWVRQAPGQGLEWMGGIIPIFGIANYAQKFQGRVTITADESTSTAYMDLSSLRSEDTAVYYCARDLFYYDRSGQPQVDEYFQDWGQGTLVTVSS
chain 2: QSVLTQPPSVSGAPGQRVTISCTGSSSNIGAGYDVHWYQQLPGTAPKLLIYGNSNRPSGVPDRFSGSTSGTSASLAITGLQAEDEADYYCQSYDSSLSGYVFGIGTKVTVL
B3: BD57-0364 (protein)
chain 1: QVQLVESGGGVVQPGGSLRLSCAASGFTFKNYGLHWVRQAPGKGPEWVSFIWYDGSNKYYADSVKGRFITSRDNSKNTLFLQMNSLRPDDTAVYYCSLGSGSYASDPRTLDYWGHGALVTVSS
chain 2: DIQMTQSPSSLSASVGDRVTITCRASQNIANYLNWYQQKPGKAPELLIYDASSLQSGDPSRFSGSGSGTDFTLTISSLQPEDFATYYCQQSYSTPLFTFGQGTKLEIK
B4: BD57-0359 (protein)
chain 1: QVQLVQSGAEVKKPGASVKVSCKASGHTFTGYYMHWVRQAPGQGLEWMGWINPISGGTNYAQKFQGRVTMTRDTSINTAYMELSRLTADDTAVYYCARRGEEEQWLEHGYYYYMDVWGKGTTVTVSS
chain 2: QSALTQPASVSGSPGQSITISCTGTSSDVGAYNYVSWYQQHPGKAPKLIIYDVSNRPSGISNRFSGSTSGNTASLTISGLQAEDEADYYCSSNTSRTLVFGGGTKLTVL
B5: BD57-0369 (protein)
chain 1: QVQLVESGGGVVQPGRSLRLSCAASGFTFRNYGMHWVRQAPGKGLEWVAMIWNDGSNAYYGDSVKGRFTISRDNSKNTLFLQMNTLRVEDMAVYYCVRDAGSEVLYDVTGQGNWFDPWGQGTLVTVSS
chain 2: DIQMTQSPSSLSASVGDRVTITCRASQNIESHLNWYQQKPGKAPKLLIYAASTLQSEVPSRFSGRGTGTDFTLTISSLQREDFATYYCQQSDSLPTTFGQGTKVEIK
B6: BD57-0397 (protein)
chain 1: EVQLLESGGGLVQPGGSLRLSCAGSGFTFRHYAMTWVRQPPGKGLEWVSSISGSGGDTFYPDSVKGRFTISRDNSKNILYLQMNNLRADDTAVYYCAKDRVASMWANEYWGQGTLVIVSS
chain 2: DIQMTQSPSSLSASVGDRVTITCQASQDISNYLNWYQQRPGKAPKLLIYDASNLETGVPSRFSGSGSGTDFTLTISSLQPEDIATYYCQQYDHLVFTFGPGTKVHLK
B7: BD57-0390 (protein)
chain 1: QVQLVESGGGVVQPGRSLRLSCAASGFTFSNYDMHWVRQAPGKGLEWLAVISKDGSTKYNADSVKGRFTISRDNYQNMVYLQMNSLRAEDTGVFYCARDLDPYSYGYFDYWGQGTLVTVSS
chain 2: EIVMTQSPATLSVSPGERATLSCRASQIVSSNLAWYQQNPGQAPRLLIYGASTRATGIPARFSGSGSGTEFTLTISSLQPEDFAVYYCQQYYYWPSFGPGTKVDIK
B8: BD57-0354 (protein)
chain 1: EVQLVESGGGLVQPGGSLRLSCAASGFTFSSYSMNWVRQAPGKGLEWVSYISSSSSPIYYADSVKGRFTISRDNAKNSLYLQMNSLRDEDTAVYYCARDSSYNWNHDLDYWGQGTLVTVSS
chain 2: EIVLTQSPATLSLSPGERATLSCRASQSISSFLAWYQQKPGQAPRLLIYDASNRATGIPARFSGSGSGTDFTLTISSLEPEDFAVYYCQQRSNWPQTFGQGTRLEIK
B9: BD57-0351 (protein)
chain 1: QVTLRESGPALVKPTQTLTLTCTFSGFSLNTNLMSVAWIRQPPGKALEWLARIDWDDDKFYSPAVKTRLTISKDTSKNQVVLTMTTMDPLDTATYYCARMRLGGFQFHADYWGQGTQVAVSS
chain 2: QSVLTQPPSVSAAPGQKVTISCSGSSSNIGDNYVSWYQQLPGTAPKLLIYDNNKRPSGIPDRFSGSKSGTSATLGITGLQTGDEADYYCGTWDSSLNSGVFGGGTRLTVL
B10: BD57-0358 (protein)
chain 1: EVQLVQSGVEVKKPGESLKISCKGSGYSFTNHWIGWVRQMPGKGLEWMGIIYPGDSDTRYNPSFQGQVTISVDKSISSAYLQWSSLKASDTAMYYCASRGGAYLGDVFDIWGQGTMVIVSS
chain 2: QSALTQPASVSGSPGQSITISCTGTSSDVGSYNLLSWYQQHPGKAPKLMIYEGSERPSGVSHRFSGSNSGTTASLTISGLQSEDEADYYCCSYAGSTTPWVFGGGTKLTVL
B11: BD57-0357 (protein)
chain 1: QVQLVQSGAEVKRPGASVKVSCKASGYTFTSYDINWVRQAAGQGLEWMGWISPISGNTGFAQKFQGRVSMTRDTSISTVFLDLSGLRSEDTAVYYCARGGRYCTSTNCYSHYGLDVWGQGTTVIVSS
chain 2: DIQLTQSPSFLSASVGDRVTITCRASQDISTHLAWYQQKPGKAPKFLIYDASTLQSGVPSRFSGSGSGTEFTLTISSLQPEDFATYYCQQLNTYTLTFGGGTKLDIK
B12: BD57-0355 (protein)
chain 1: QYQLVQSGAEVKKPGSSVKVSCKASGGSLSNFAVSWVRQAPGQGLEWMGGIVPILGTTDYAQHFQGRVTITVDESMSTAYMELTSLRSADTAVYFCATGVRYCTSDSCSSAYFRDWGQGTLVTVSS
chain 2: EIVLTQSPGTLSLSPGERATLSCRASQRISATHLAWYQQQPGQAPRLLIYGTSSRATGVPDRFSGSGSGTDFTLTISRLEPEDFAVYYCQQYGSSPRTFGQGTKVEIK

The target in the first test is SARS-CoV-2 Omicron BA.1 spike pseudovirus. Briefly: pseudovirus neutralization IC50; higher = weaker neutralization. How it is done: (§1)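 Single-round VSV luciferase pseudovirus mixed with antibody dilutions for 1 h and put on Huh-7 cells for about a day; IC50 from the dose curve.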
On to B1, for which the “pseudovirus neutralization IC50” value is 0.102 µg/mL.

On to B2, for which the “pseudovirus neutralization IC50” value is 0.125 µg/mL.

Consider B3, for which the “pseudovirus neutralization IC50” value amounted to 5.98 µg/mL.

On to B4, for which the “pseudovirus neutralization IC50” value is above 10 µg/mL.

As to B5, the “pseudovirus neutralization IC50” value was 2.92 µg/mL.

Consider B6, for which the “pseudovirus neutralization IC50” value was above 10 µg/mL.

With B7, the “pseudovirus neutralization IC50” value was above 10 µg/mL.

For the molecule B8, the “pseudovirus neutralization IC50” value was 1.41 µg/mL.

As to B9, the “pseudovirus neutralization IC50” value was above 10 µg/mL.

As for B10, the “pseudovirus neutralization IC50” value was determined as 0.783 µg/mL.

In the case of B11, the “pseudovirus neutralization IC50” value turned out to be 3.08 µg/mL.

As for B12, the “pseudovirus neutralization IC50” value was above 10 µg/mL.

For the next test, the target named is SARS-CoV-2 Omicron BA.2 spike pseudovirus. The description is as above. How it is done: as §1
On to B1, for which the “pseudovirus neutralization IC50” value is 0.0746 µg/mL.

Take B2: the “pseudovirus neutralization IC50” value was above 10 µg/mL.

On to B3, for which the “pseudovirus neutralization IC50” value turned out to be 4.14 µg/mL.

B4: the “pseudovirus neutralization IC50” value was above 10 µg/mL.

B5: the “pseudovirus neutralization IC50” value was found to be 2.36 µg/mL.

For B6, the “pseudovirus neutralization IC50” value is above 10 µg/mL.

Regarding B7, the “pseudovirus neutralization IC50” value was above 10 µg/mL.

Regarding B8, the “pseudovirus neutralization IC50” value amounted to 0.0239 µg/mL.

For B9, the “pseudovirus neutralization IC50” value was 0.00198 µg/mL.

As to B10, the “pseudovirus neutralization IC50” value was 0.433 µg/mL.

Take B11: the “pseudovirus neutralization IC50” value was found to be 0.0895 µg/mL.

Consider B12, for which the “pseudovirus neutralization IC50” value is above 10 µg/mL.

The target in another test is SARS-CoV-2 Omicron BA.2.75 spike pseudovirus. The description is as above. On the procedure:
as §1
On to B1, for which the “pseudovirus neutralization IC50” value stood at 0.054 µg/mL.

For B2, the “pseudovirus neutralization IC50” value is above 10 µg/mL.

As for B3, the “pseudovirus neutralization IC50” value was found to be 5.18 µg/mL.

Regarding B4, the “pseudovirus neutralization IC50” value was 0.343 µg/mL.

In the case of B5, the “pseudovirus neutralization IC50” value was 2.18 µg/mL.

For B6, the “pseudovirus neutralization IC50” value is above 10 µg/mL.

For the molecule B7, the “pseudovirus neutralization IC50” value was above 10 µg/mL.

Regarding B8, the “pseudovirus neutralization IC50” value turned out to be 0.432 µg/mL.

In the case of B9, the “pseudovirus neutralization IC50” value stood at 1.41 µg/mL.

With B10, the “pseudovirus neutralization IC50” value was 0.695 µg/mL.

For B11, the “pseudovirus neutralization IC50” value was 0.0139 µg/mL.

For the molecule B12, the “pseudovirus neutralization IC50” value amounted to 0.935 µg/mL.

In another test the target is SARS-CoV-2 Omicron BA.5 spike pseudovirus. The test is described as above. On the procedure: as §1
Take B1: the “pseudovirus neutralization IC50” value was 0.069 µg/mL.

Turning to B2, the “pseudovirus neutralization IC50” value was above 10 µg/mL.

As to B3, the “pseudovirus neutralization IC50” value was above 10 µg/mL.

Regarding B4, the “pseudovirus neutralization IC50” value is above 10 µg/mL.

Regarding B5, the “pseudovirus neutralization IC50” value worked out at 2.58 µg/mL.

In the case of B6, the “pseudovirus neutralization IC50” value is above 10 µg/mL.

B7: the “pseudovirus neutralization IC50” value was above 10 µg/mL.

Turning to B8, the “pseudovirus neutralization IC50” value was determined as 0.00708 µg/mL.

For the molecule B9, the “pseudovirus neutralization IC50” value is 0.000883 µg/mL.

As for B10, the “pseudovirus neutralization IC50” value was determined as 0.544 µg/mL.

Regarding B11, the “pseudovirus neutralization IC50” value was above 10 µg/mL.

Turning to B12, the “pseudovirus neutralization IC50” value stood at 2.6 µg/mL.

A further test addresses SARS-CoV-2 Omicron BQ.1.1 spike pseudovirus. The test is described as above. On the procedure: as §1
With B1, the “pseudovirus neutralization IC50” value was above 10 µg/mL.

Take B2: the “pseudovirus neutralization IC50” value is above 10 µg/mL.

In the case of B3, the “pseudovirus neutralization IC50” value is above 10 µg/mL.

Regarding B4, the “pseudovirus neutralization IC50” value was above 10 µg/mL.

As to B5, the “pseudovirus neutralization IC50” value was determined as 2.94 µg/mL.

Turning to B6, the “pseudovirus neutralization IC50” value is above 10 µg/mL.

B7: the “pseudovirus neutralization IC50” value is above 10 µg/mL.

For the molecule B8, the “pseudovirus neutralization IC50” value was above 10 µg/mL.

With B9, the “pseudovirus neutralization IC50” value was above 10 µg/mL.

B10: the “pseudovirus neutralization IC50” value came out at 1.3 µg/mL.

Turning to B11, the “pseudovirus neutralization IC50” value is above 10 µg/mL.

With B12, the “pseudovirus neutralization IC50” value is above 10 µg/mL.

The target of a further test is SARS-CoV-2 Omicron XBB spike pseudovirus. The description is as above. How it is done:
as §1
Regarding B1, the “pseudovirus neutralization IC50” value is 3.21 µg/mL.

Consider B2, for which the “pseudovirus neutralization IC50” value was above 10 µg/mL.

Turning to B3, the “pseudovirus neutralization IC50” value was above 10 µg/mL.

Consider B4, for which the “pseudovirus neutralization IC50” value was above 10 µg/mL.

Consider B5, for which the “pseudovirus neutralization IC50” value was found to be 3.06 µg/mL.

On to B6, for which the “pseudovirus neutralization IC50” value was above 10 µg/mL.

Turning to B7, the “pseudovirus neutralization IC50” value was above 10 µg/mL.

Take B8: the “pseudovirus neutralization IC50” value is above 10 µg/mL.

For the molecule B9, the “pseudovirus neutralization IC50” value was above 10 µg/mL.

As to B10, the “pseudovirus neutralization IC50” value was determined as 0.896 µg/mL.

For the molecule B11, the “pseudovirus neutralization IC50” value was above 10 µg/mL.

On to B12, for which the “pseudovirus neutralization IC50” value is above 10 µg/mL.

In a further test the target is SARS-CoV-2 early D614G spike pseudovirus. The description is as above. How it is done: as §1
Consider B1, for which the “pseudovirus neutralization IC50” value came out at 0.0236 µg/mL.

Regarding B2, the “pseudovirus neutralization IC50” value is 0.119 µg/mL.

As to B3, the “pseudovirus neutralization IC50” value was above 10 µg/mL.

As for B4, the “pseudovirus neutralization IC50” value amounted to 0.000916 µg/mL.

Turning to B5, the “pseudovirus neutralization IC50” value was above 10 µg/mL.

As for B6, the “pseudovirus neutralization IC50” value was above 10 µg/mL.

With B7, the “pseudovirus neutralization IC50” value is above 10 µg/mL.

For B8, the “pseudovirus neutralization IC50” value is 0.00687 µg/mL.

Regarding B9, the “pseudovirus neutralization IC50” value turned out to be 0.000963 µg/mL.

Turning to B10, the “pseudovirus neutralization IC50” value was determined as 4.4 µg/mL.

Turning to B11, the “pseudovirus neutralization IC50” value was 0.00117 µg/mL.

Regarding B12, the “pseudovirus neutralization IC50” value turned out to be 0.00149 µg/mL.
